Compound potency records, mixed from different reports. Data source: NIAID ChemDB in PubChem.

Common to all: growth or infection tests; species: Mycobacterium smegmatis; read by: agar; measure: MIC

Conditions beyond the fields shown may differ between rows. Blank or dashed fields: not listed here.

compound | strain | result
CCCCCCCC1SCC(=O)N1NC(=O)c1ccncc1 |  | 50 µg/mL
O=C(O)c1c2n(c3cc(F)c(N4CCN(C(=O)c5ccco5)CC4)cc3c1=O)CS2 | ATCC 14468 | 58.22 µM
COc1c(N2CCN(Cc3ccc4c(c3)OCO4)CC2)c(F)c([N+](=O)[O-])c2c(=O)c(C(=O)O)cn(C3CC3)c12 | ATCC 14468 | 1.44 µM
O=C(O)c1c2n(c3cc(N4CCC(N5CCCCC5)CC4)c([N+](=O)[O-])cc3c1=O)CS2 | ATCC 14468 MC2 | 112 µM
O=C(O)c1c2n(c3cc(F)c(N4CCC(O)(c5ccc(Cl)cc5)CC4)cc3c1=O)CS2 | ATCC 14468 | 54.24 µM
O=C(O)c1c2n(c3cc(N4CCC(N5CCCCC5)CC4)c(F)cc3c1=O)CS2 | ATCC 14468 MC2 | 120 µM
O=C(O)c1c2n(c3cc([N+](=O)[O-])c(N4CCC(O)(c5ccc(Cl)cc5)CC4)cc3c1=O)CS2 | ATCC 14468 | 6.42 µM
O=C(O)c1cn2c(n1)CN(c1cc3c(cc1F)c(=O)c(C(=O)O)c1n3CS1)CC2 | ATCC 14468 MC2 | 60.04 µM
COc1c(N2CCNC(C)C2)c(F)cc2c(=O)c(C(=O)O)cn(C3CC3)c12 | ATCC 14468 | 2.08 µM
CCCCCCCC1OC(c2ccncc2)=NN1C(C)=O |  | >100 µg/mL
COc1c(N2CCN(C)C(c3ccccc3)C2)c(F)c([N+](=O)[O-])c2c(=O)c(C(=O)O)cn(C3CC3)c12 | ATCC 14468 | 6.3 µM
CC1CN(c2cc3c(cc2F)c(=O)c(C(=O)O)c2n3CS2)CC(C)O1 | ATCC 14468 MC2 | 68.61 µM
COc1c(N2COCC2(C)C)c(F)cc2c(=O)c(C(=O)O)cn(C3CC3)c12 | ATCC 14468 | 16.61 µM
O=C(O)c1c2n(c3cc(N4CCN(C(c5ccccc5)c5ccc(Cl)cc5)CC4)c([N+](=O)[O-])cc3c1=O)CS2 | ATCC 14468 MC2 | 5.56 µM
COc1c(N2CCN(C(=O)c3ccco3)CC2)c(F)c([N+](=O)[O-])c2c(=O)c(C(=O)O)cn(C3CC3)c12 | ATCC 14468 | 12.49 µM
COc1ccc(CC2C3=C(CCCC3)CCN2c2cc3c(=O)c(C(=O)O)c4n(c3cc2F)CS4)cc1 | ATCC 14468 | 98.69 µM
COc1c(N2CCC(N3CCCCC3)CC2)c(F)cc2c(=O)c(C(=O)O)cn(C3CC3)c12 | ATCC 14468 | 14.09 µM
O=C(O)c1cn2c(n1)CN(c1cc3c(=O)c(C(=O)O)c4n(c3cc1F)CS4)CC2 | ATCC 14468 | 60.04 µM
CC(C)(C)OC(=O)NC1C2CN(c3cc4c(cc3[N+](=O)[O-])c(=O)c(C(=O)O)c3n4CS3)CC21 | ATCC 14468 MC2 | 13.17 µM

Repeating the final 2 entries:

compound	strain	result
O=C(O)c1cn2c(n1)CN(c1cc3c(=O)c(C(=O)O)c4n(c3cc1F)CS4)CC2	ATCC 14468	60.04 µM
CC(C)(C)OC(=O)NC1C2CN(c3cc4c(cc3[N+](=O)[O-])c(=O)c(C(=O)O)c3n4CS3)CC21	ATCC 14468 MC2	13.17 µM